Assay results from PMC6941823, “A dispensable paralog of succinate dehydrogenase subunit C mediates standing resistance towards a subclass of SDHI fungicides in Zymoseptoria tritici” (PLoS Pathogens, 2019).

Columns and labels:
[1] = test system: SQR (SDHC / altC) of IPO323 pTet::SDHC3 transformant, induced; experiment: Succinate-quinone (SQR) SDHI sensitivity assay on purified mitochondria, IPO323 pTet::SDHC3 induced; assay type: biochemical, Zymoseptoria tritici; conditions: IC50 ratio compared to IPO323 values
Method: Succinate-ubiquinone oxidoreductase (SQR) inhibition assays were performed on mitochondrial extracts from a panel of strains that were (i) either carrying a unique C-subunit encoding gene (ZtSDHC1, ZtSDHC1_A84I or Zt-SDHC3), or (ii) carrying two C-subunit encoding genes ZtSDHC1 and ZtSDHC3 (Table 1).
Biomass production, mitochondrial extraction and purification were performed as described in [14]. Succinate: ubiquinone/DCPIP sensitivity tests were performed as described in [14] with minor modification.

[2] = test system: Zymoseptoria tritici progeny isolates; assay type: cell-based; conditions: for phenotype flag in column R (resistant): 1 = resistant; for Phenotype resistant (R) flag: fluopyram 10 mg.L^-1 agar, 1 in R column; for phenotype flag, resistant (R) column: growth on fluopyram 10 mg.L^-1 agar; for phenotype flag, resistant (R) column / Phenotyping Growth Fluopyram 10ppm Resistant: 1 = scored resistant; for Phenotype scored resistant (R): agar growth on fluopyram 10 mg.L^-1, 1 = scored in this class
[3] = test system: Zymoseptoria tritici field and genetically modified strains; experiment: Liquid culture assay for fungicide sensitivity determination; assay type: cell-based; conditions: respective to IPO323
Method: Sensitivity towards commercial fungicides was determined for a set of 99 SHA-SDHI-naïve Z. tritici field isolates sampled in Europe between 2006 and 2009. The EC50 of these isolates was determined in liquid growth assays and the data obtained compared for each possible pair of SDHI fungicides (cross-resistance (XR) plots, Fig 1). […] Comparative succinate-quinone reductase (SQR) enzyme inhibition tests were performed with mitochondria extracted from a panel of SHA-SDHIs tolerant and sensitive isolates.
In order to characterize in more depth the mechanisms driving sensitivity differences across the isolates, a subset of eight isolates carrying the ZtSDHC3 gene was analyzed for their sensitivity to SDHIs, alt-SDHC expression and splicing patterns. Liquid culture growth sensitivity tests were performed to determine EC50s for this set of isolates towards a wide range of commercial and research SDHIs (S5 Table).
Pre-culture of the inoculum and fungicide sensitivity tests were performed following previously described procedures. Different ranges of inhibitor concentrations were used for population monitoring and for the detailed phenotyping of a selected set of individual field isolates and genetically modified strains. For fungicide sensitivity monitoring of European field populations, final inhibitors concentrations were between 100 mg.L^-1 and 0.0001 mg.L^-1 with uniform 10x dilution steps (7 inhibitor concentrations + DMSO control). For refined sensitivity analysis of a smaller panel of isolates final inhibitor concentrations ranged between 0.5 mM and 0.47 nM with uniform 4x dilution factor steps (11 inhibitor concentrations+ DMSO control).

O=C(NCCc1ncc(C(F)(F)F)cc1Cl)c1ccccc1C(F)(F)F [Fluopyram]
1: phenotype flag in column R (resistant) ([2]; progeny isolate 26, cross IPO323XD024) | phenotype flag in column R (resistant) ([2]; progeny isolate 29, cross IPO323XD024) | phenotype flag in column R (resistant) ([2]; progeny isolate 30, cross IPO323XD024) | phenotype flag in column R (resistant) ([2]; progeny isolate 35, cross IPO323XD024) | phenotype flag in column R (resistant) ([2]; progeny isolate 36, cross IPO323XD024) | phenotype flag in column R (resistant) ([2]; progeny isolate 38, cross IPO323XD024) | phenotype flag in column R (resistant) ([2]; progeny isolate 41, cross IPO323XD024) | phenotype flag in column R (resistant) ([2]; progeny isolate 42, cross IPO323XD024) | phenotype flag in column R (resistant) ([2]; progeny isolate 44, cross IPO323XD024) | phenotype flag in column R (resistant) ([2]; progeny isolate 45, cross IPO323XD024) | phenotype flag in column R (resistant) ([2]; progeny isolate 47, cross IPO323XD024) | phenotype flag in column R (resistant) ([2]; progeny isolate 48, cross IPO323XD024) | phenotype flag in column R (resistant) ([2]; progeny isolate 52, cross IPO323XD024) | phenotype flag in column R (resistant) ([2]; progeny isolate 58, cross IPO323XD024) | phenotype flag in column R (resistant) ([2]; progeny isolate 61, cross IPO323XD024) | phenotype flag in column R (resistant) ([2]; progeny isolate 64, cross IPO323XD024) | phenotype scored resistant (R), flag 1 in R column ([2]; progeny isolate 66, cross IPO323XD024, fluopyram 10 mg.L^-1 agar) | phenotype scored resistant (R), flag 1 in R column ([2]; progeny isolate 68, cross IPO323XD024, fluopyram 10 mg.L^-1 agar) | phenotype scored resistant (R), flag 1 in R column ([2]; progeny isolate 69, cross IPO323XD024, fluopyram 10 mg.L^-1 agar) | phenotype scored resistant (R), flag 1 in R column ([2]; progeny isolate 70, cross IPO323XD024, fluopyram 10 mg.L^-1 agar) | phenotype scored resistant (R), flag 1 in R column ([2]; progeny isolate 73, cross IPO323XD024, fluopyram 10 mg.L^-1 agar) | phenotype scored resistant (R), flag 1 in R column ([2]; progeny isolate 74, cross IPO323XD024, fluopyram 10 mg.L^-1 agar) | phenotype scored resistant (R), flag 1 in R column ([2]; progeny isolate 76, cross IPO323XD024, fluopyram 10 mg.L^-1 agar) | phenotype scored resistant (R), flag 1 in R column ([2]; progeny isolate 79, cross IPO323XD024, fluopyram 10 mg.L^-1 agar) | phenotype scored resistant (R), flag 1 in R column ([2]; progeny isolate 80, cross IPO323XD024, fluopyram 10 mg.L^-1 agar) | phenotype scored resistant (R), flag 1 in R column ([2]; progeny isolate 81, cross IPO323XD024, fluopyram 10 mg.L^-1 agar) | phenotype scored resistant (R), flag 1 in R column ([2]; progeny isolate 85, cross IPO323XD024, fluopyram 10 mg.L^-1 agar) | phenotype scored resistant (R), flag 1 in R column ([2]; progeny isolate 86, cross IPO323XD024, fluopyram 10 mg.L^-1 agar) | phenotype scored resistant (R), flag 1 in R column ([2]; progeny isolate 87, cross IPO323XD024, fluopyram 10 mg.L^-1 agar) | phenotype scored resistant (R), flag 1 in R column ([2]; progeny isolate 93, cross IPO323XD024, fluopyram 10 mg.L^-1 agar) | phenotype scored resistant (R), flag 1 in R column ([2]; progeny isolate 94, cross IPO323XD024, fluopyram 10 mg.L^-1 agar) | phenotype scored resistant (R), flag 1 in R column ([2]; progeny isolate 95, cross IPO323XD024, fluopyram 10 mg.L^-1 agar) | phenotype scored resistant (R), flag 1 in R column ([2]; progeny isolate 96, cross IPO323XD024, fluopyram 10 mg.L^-1 agar) | phenotype scored resistant (R), flag 1 in R column ([2]; progeny isolate 100, cross IPO323XD024, fluopyram 10 mg.L^-1 agar) | phenotype scored resistant (R), flag 1 in R column ([2]; progeny isolate 101, cross IPO323XD024, fluopyram 10 mg.L^-1 agar) | phenotype scored resistant (R), flag 1 in R column ([2]; progeny isolate 104, cross IPO323XD024, fluopyram 10 mg.L^-1 agar) | phenotype scored resistant (R), flag 1 in R column ([2]; progeny isolate 105, cross IPO323XD024, fluopyram 10 mg.L^-1 agar) | phenotype scored resistant (R), flag 1 in R column ([2]; progeny isolate 108, cross IPO323XD024, fluopyram 10 mg.L^-1 agar) | Phenotype resistant (R) flag ([2]; progeny isolate 154 of cross IPO323XD024) | Phenotype resistant (R) flag ([2]; progeny isolate 157 of cross IPO323XD024) | Phenotype resistant (R) flag ([2]; progeny isolate 159 of cross IPO323XD024) | Phenotype resistant (R) flag ([2]; progeny isolate 160 of cross IPO323XD024) | Phenotype resistant (R) flag ([2]; progeny isolate 164 of cross IPO323XD024) | Phenotype resistant (R) flag ([2]; progeny isolate 165 of cross IPO323XD024) | Phenotype resistant (R) flag ([2]; progeny isolate 167 of cross IPO323XD024) | Phenotype resistant (R) flag ([2]; progeny isolate 170 of cross IPO323XD024) | Phenotype resistant (R) flag ([2]; progeny isolate 171 of cross IPO323XD024) | Phenotype resistant (R) flag ([2]; progeny isolate 172 of cross IPO323XD024) | Phenotype resistant (R) flag ([2]; progeny isolate 178 of cross IPO323XD024) | Phenotype resistant (R) flag ([2]; progeny isolate 179 of cross IPO323XD024) | Phenotype resistant (R) flag ([2]; progeny isolate 180 of cross IPO323XD024) | Phenotype resistant (R) flag ([2]; progeny isolate 181 of cross IPO323XD024) | Phenotype resistant (R) flag ([2]; progeny isolate 183 of cross IPO323XD024) | Phenotype resistant (R) flag ([2]; progeny isolate 186 of cross IPO323XD024) | Phenotype resistant (R) flag ([2]; progeny isolate 187 of cross IPO323XD024) | Phenotype resistant (R) flag ([2]; progeny isolate 188 of cross IPO323XD024) | Phenotype resistant (R) flag ([2]; progeny isolate 189 of cross IPO323XD024) | phenotype flag, resistant (R) column ([2]; progeny isolate 190, cross IPO323XD024) | phenotype flag, resistant (R) column ([2]; progeny isolate 191, cross IPO323XD024) | phenotype flag, resistant (R) column ([2]; progeny isolate 194, cross IPO323XD024) | phenotype flag, resistant (R) column ([2]; progeny isolate 196, cross IPO323XD024) | phenotype flag, resistant (R) column ([2]; progeny isolate 198, cross IPO323XD024) | phenotype flag, resistant (R) column ([2]; progeny isolate 199, cross IPO323XD024) | phenotype flag, resistant (R) column ([2]; progeny isolate 200, cross IPO323XD024) | phenotype flag, resistant (R) column ([2]; progeny isolate 202, cross IPO323XD024) | phenotype flag, resistant (R) column ([2]; progeny isolate 203, cross IPO323XD024) | phenotype flag, resistant (R) column ([2]; progeny isolate 204, cross IPO323XD024) | phenotype flag, resistant (R) column ([2]; progeny isolate 205, cross IPO323XD024) | phenotype flag, resistant (R) column ([2]; progeny isolate 206, cross IPO323XD024) | phenotype flag, resistant (R) column ([2]; progeny isolate 208, cross IPO323XD024) | phenotype flag, resistant (R) column ([2]; progeny isolate 212, cross IPO323XD024) | phenotype flag, resistant (R) column ([2]; progeny isolate 213, cross IPO323XD024) | phenotype flag, resistant (R) column ([2]; progeny isolate 214, cross IPO323XD024) | phenotype flag, resistant (R) column ([2]; progeny isolate 216, cross IPO323XD024) | phenotype flag, resistant (R) column ([2]; progeny isolate 219, cross IPO323XD024) | phenotype flag, resistant (R) column ([2]; progeny isolate 222, cross IPO323XD024) | phenotype flag, resistant (R) column ([2]; progeny isolate 226, cross IPO323XD024) | Phenotype scored resistant (R) ([2]; progeny isolate 231 of cross IPO323 x D024) | Phenotype scored resistant (R) ([2]; progeny isolate 232 of cross IPO323 x D024) | Phenotype scored resistant (R) ([2]; progeny isolate 233 of cross IPO323 x D024) | Phenotype scored resistant (R) ([2]; progeny isolate 234 of cross IPO323 x D024) | Phenotype scored resistant (R) ([2]; progeny isolate 236 of cross IPO323 x D024) | Phenotyping Growth Fluopyram 10ppm Resistant ([2]; progeny strain 1, cross IPO323XD024) | Phenotyping Growth Fluopyram 10ppm Resistant ([2]; progeny strain 2, cross IPO323XD024) | Phenotyping Growth Fluopyram 10ppm Resistant ([2]; progeny strain 4, cross IPO323XD024) | Phenotyping Growth Fluopyram 10ppm Resistant ([2]; progeny strain 5, cross IPO323XD024) | Phenotyping Growth Fluopyram 10ppm Resistant ([2]; progeny strain 6, cross IPO323XD024) | Phenotyping Growth Fluopyram 10ppm Resistant ([2]; progeny strain 7, cross IPO323XD024) | Phenotyping Growth Fluopyram 10ppm Resistant ([2]; progeny strain 8, cross IPO323XD024) | Phenotyping Growth Fluopyram 10ppm Resistant ([2]; progeny strain 9, cross IPO323XD024) | Phenotyping Growth Fluopyram 10ppm Resistant ([2]; progeny strain 11, cross IPO323XD024) | Phenotyping Growth Fluopyram 10ppm Resistant ([2]; progeny strain 12, cross IPO323XD024) | Phenotyping Growth Fluopyram 10ppm Resistant ([2]; progeny strain 15, cross IPO323XD024) | Phenotyping Growth Fluopyram 10ppm Resistant ([2]; progeny strain 22, cross IPO323XD024) | Phenotyping Growth Fluopyram 10ppm Resistant ([2]; progeny strain 24, cross IPO323XD024) | Phenotyping Growth Fluopyram 10ppm Resistant ([2]; strain D024 (parent), cross IPO323XD024, 0 = not) | RF LC (resistance factor in liquid culture) ([3]; strain IPO323)
42.1: RF LC (resistance factor in liquid culture) ([3]; strain 06STD024)
6.2: RF LC (resistance factor in liquid culture) ([3]; strain 09STD041)
16.1: RF LC (resistance factor in liquid culture) ([3]; strain 09STF011)
0.7: RF LC (resistance factor in liquid culture) ([3]; strain IPO94269)
49.2: RF LC (resistance factor in liquid culture) ([3]; strain 07STGB009)
~50: RF LC (resistance factor in liquid culture) ([3]; strain 06STD024, listed as fluopyram) | RF LC (resistance factor in liquid culture) ([3]; strain 07STGB009, listed as fluopyram)
43.9: RF (resistance factor), pTet Induced (SDHC / altC) [1]
2.5: RF LC (resistance factor in liquid culture) ([3]; strain 09STD053)
13.0: RF LC (resistance factor in liquid culture) ([3]; strain 09STF112)
1.9: RF LC (resistance factor in liquid culture) ([3]; strain 09STIR20.3)
2: RF LC (resistance factor in liquid culture) ([3]; strain 09STIR20.3, listed as fluopyram)
0: Phenotyping Growth Fluopyram 10ppm Resistant ([2]; strain IPO323 (parent), cross IPO323XD024, 0 = not)
2.1: RF LC (resistance factor in liquid culture) ([3]; strain 09STF037)

Where two headings read alike, the source gives them in different places.
